The data set concerns Saccharomyces cerevisiae strain ATCC 64031. The data set is described as follows: Effect of tocopherol on prenyl alcohol secretory production, GC/MS (Example 5, Table 1). The class given is cell-based.

Regarding `CC(C)=CCCC(C)=CCCC(C)=CC=O` [FAL, farnesal], the Cell fraction by setting is: (Tocopherol 0 μM) 217 μg/L of culture solution; (Tocopherol 20 μM) 179 μg/L of culture solution; (Tocopherol 200 μM) 127 μg/L of culture solution. Besides, the Supernatant fraction (Tocopherol 0 μM) was 84 μg/L of culture solution, the Supernatant fraction (Tocopherol 20 μM) was 84 μg/L of culture solution and the Supernatant fraction (Tocopherol 200 μM) is on record as 120 μg/L of culture solution.
With dehydrofarnesol [DHFOH], the Cell fraction by setting is: (Tocopherol 0 μM) 4630 μg/L of culture solution; (Tocopherol 20 μM) 3622 μg/L of culture solution; (Tocopherol 200 μM) 2206 μg/L of culture solution. Moreover, the Supernatant fraction is on record as 1238 μg/L of culture solution (Tocopherol 0 μM), 1573 μg/L of culture solution (Tocopherol 20 μM) and 3527 μg/L of culture solution (Tocopherol 200 μM).

(Values after patent US6974685B2, “High production method of prenyl alcohol using saccharomyces cells” (Toyota Jidosha Kabushiki Kaisha 1, priority 2000, dated 2005).)
